Pooled drug test results. Numbers come from NIAID ChemDB, via PubChem.

Shared fields: tests in culture

A number after MIC or MFC names an inhibition level or a share of isolates. Blank or dashed fields: not listed here. Lines come from different laboratories, so protocols vary. Inhibition is in % at the dose shown (toxicity tests: loss of growth or viability). ECn: concentration that inhibits the pathogen or its effect by n%.

compound,cell line,organism,dose,strain,endpoint,read by,result
C=Cc1cn([C@@H]2O[C@H](CO)[C@@H](O)[C@@H]2O)c(=O)[nH]c1=O,HELF,Varicella zoster virus,0.01 µg/mL,OKA,inhibition,plaque count,0%
O=[N+]([O-])c1ccc(C=Nc2ccccc2O)cc1,,Cryptococcus gattii,,ATCC 32608,MIC99,,16 µg/mL
Nc1nc(=O)n([C@@H]2O[C@H](CO)[C@@H](O)[C@@H]2F)cc1I,HELF,Varicella zoster virus,0.1 µg/mL,Ohtomo,inhibition,plaque count,100%
C=CCc1ccc(O)c(OC)c1,,Candida tropicalis,,341,MIC90,turbidity,495 µg/mL
CCOC(=O)c1cnc(NCCCCNc2ccnc3cc(Cl)ccc23)nc1C,,Cryptococcus neoformans,,VM-MCMMPI,MIC99,,8 µg/mL
CCC(CC)O[C@@H]1C=C(C(=O)O)C[C@H](N)[C@H]1NC(C)=O,MDCK,Influenza B virus,,Isolate C33D,EC50,plaque count,0.045 µg/mL
O=S(=O)([O-])c1ccc2c(NS(=O)(=O)c3ccccc3)cc(S(=O)(=O)[O-])cc2c1,Human amnion AV3 cells,Adenovirus,5 µg/mL,TYPE 3,inhibition,cytopathic effect,0%
Oc1ccccc1C=Nc1ccccc1O,,Cryptococcus neoformans,,GM,MIC,broth dilution,5.3 µg/mL
Cc1cn([C@@H]2O[C@H](CO)[C@@H](O)[C@@H]2O)c(=O)[nH]c1=O,HELF,Varicella zoster virus,1 µg/mL,Ohtomo,inhibition,plaque count,100%
Cc1ccc(C(=O)Nc2ccc(S(=O)(=O)O)c3cc(S(=O)(=O)O)cc(S(=O)(=O)O)c23)cc1NC(=O)c1cccc(NC(=O)Nc2cccc(C(=O)Nc3cc(C(=O)Nc4ccc(S(=O)(=O)O)c5cc(S(=O)(=O)O)cc(S(=O)(=O)O)c45)ccc3C)c2)c1,Human amnion AV3 cells,Adenovirus,5 µg/mL,TYPE 3,inhibition,cytopathic effect,0%
Cc1cn([C@@H]2O[C@H](CO)[C@@H](O)[C@@H]2F)c(=O)nc1N,HELF,Varicella zoster virus,0.1 µg/mL,HIRAI,inhibition,plaque count,100%
O=S(=O)(O)c1cccc2c(O)cccc12,Human conjunctiva cells,Herpes simplex virus,5 µg/mL,,inhibition,cytopathic effect,0%
CCO/N=C/c1ccc(OCCC2CCN(c3ccc(Cl)nn3)CC2)cc1,KB,Rhinovirus,,106F (LDL receptor group 30),EC50,neutral red,0.052 µM
O=C(Nc1ccc2cc(S(=O)(=O)[O-])cc(S(=O)(=O)[O-])c2c1)c1ccccc1,Human amnion AV3 cells,Rhinovirus,10 µg/mL,,inhibition,cytopathic effect,0%
O=c1[nH]c(=O)n([C@@H]2O[C@H](CO)[C@@H](O)[C@@H]2O)cc1/C=C/Br,HELF,Varicella zoster virus,0.001 µg/mL,OKA,inhibition,plaque count,97%
O=S(=O)([O-])c1cccc(O)c1,Human embryonic lung cells,Adenovirus,50 µg/mL,TYPE 3,inhibition,cytopathic effect,0%
Oc1ccccc1N=Cc1ccccc1,,Cryptococcus neoformans,,ATCC 28957,MIC99,,8 µg/mL
COc1cc(-c2ccc(N=Nc3ccc4c(S(=O)(=O)O)cc(S(=O)(=O)O)c(N)c4c3O)c(OC)c2)ccc1N=Nc1ccc2c(S(=O)(=O)O)cc(S(=O)(=O)O)c(N)c2c1O,Human amnion AV3 cells,Rhinovirus,5 µg/mL,,inhibition,cytopathic effect,0%
CC(=O)N[C@H]1[C@H]([C@H](O)[C@H](O)CO)OC(C(=O)O)=C[C@@H]1N=C(N)N,MDCK,Influenza A virus,,H1N1 A/Beijing/262/95,EC50,,2.6 µM
O=C(Nc1cc(S(=O)(=O)O)cc2cc(S(=O)(=O)O)cc(O)c12)c1ccccc1,Human amnion AV3 cells,Herpes simplex virus,5 µg/mL,,inhibition,cytopathic effect,0%
Cc1cc(CCCOc2c(C)cc(-c3noc(C(F)(F)F)n3)cc2C)on1,OHIO HELA-I,Rhinovirus,,Isolate 40,EC50,cytopathic effect / visual reading,0.01 µg/mL